{"source": "patent US20110142873A1", "about": "(priority 2006, published 2011)", "key": {"[1]": {"test_system": "E7-specific CD8-positive T lymphocytes", "assay": "IFN-gamma ELISPOT of splenocytes from immunized mice", "type": "in vivo, C57Bl/6 mice"}, "[2]": {"test_system": "E7-expressing TC-1 tumors", "assay": "TC-1 tumor regression assay (tumor incidence at day 49)", "type": "in vivo, C57BL/6 mice"}}}
{"sequence": "TCCATGACGTTCCTGATGCT", "values": [{"measurement": "augmenting the activity of HspE7 in the ELISPOT assay", "setting": "[1]; CpG oligonucleotide classes A, B, C, data not shown", "value": "highly active"}, {"measurement": "biological activity of immune stimulant administered in the absence of HspE7", "setting": "[1]; immune stimulant alone", "value": "did not display this activity"}, {"measurement": "augmenting the activity of HspE7 in the TC-1 tumor regression assay", "setting": "[2]; data not shown", "value": "highly active"}, {"measurement": "anti-tumor activity", "setting": "[2]; s.c. on day 7 to mice with established TC-1 tumors, followed to day 49", "value": "no effect on tumor growth"}]}
